In the assay the target is swine nectin-1 ectodomain (amino acids 30-335) (swine) (UniProt Q9GL76). The assay is described as follows: SPR. In general terms: SPR reads the build-up and loss of mass on a sensor chip optically.

By Kd is commonly meant a measure of binding affinity in units of concentration. As a reminder, the koff is the rate constant with which the complex falls apart. Read a high koff as a short-lived complex. As usually defined, the kon is the rate constant with which the complex forms. A high value points to fast association.

“PRV gD337 (pseudorabies virus glycoprotein D ectodomain, residues 1-337) (domain or fragment)” had a Kd of 301 nM, a dissociation rate constant (koff) of 0.044 s⁻¹ and a kon of 146000 M⁻¹ s⁻¹.

(Values after publication PMC5453625, “Structural basis of nectin-1 recognition by pseudorabies virus glycoprotein D” (2017).)
